{"source": "patent US20240207224A1", "about": "“MACROCYCLIC CHALCONE-AMIDE DERIVED ANTIVIRAL AGENTS” (priority 2022, published 2024)", "system": "SARS-CoV-2 replicon", "experiment": "SARS-CoV-2 Replicon Assay (Huh-7)", "conditions": "read-out: SARS-COV-2 replicon EC50; HuH-7 cells, Renilla luciferase reporter, approximately 20 hours", "experimental": "White 384-well tissue-culture-treated clear-bottom plates are used in this assay. Using a Labcyte ECHO liquid dispenser, 3-fold serial dilutions of compounds suspended in DMSO are added to the inner 308 wells in duplicate in a total volume of 125 nL per well. Two columns are treated only with 125 nL DMSO, to be used as controls. […] HuH-7 cells at 1E7 cells/mL without RNA are electroporated as a low control. For each 100 μL electroporated cell suspension, 1150 μL pre-warmed (37° C.) media (DMEM, 1×GlutaMAX, 10% FBS) is added to the cells for a final concentration of 800 cells/μL. The electroporated cells are seeded into the 308 inner compound and control wells of the 384-well plate at 20,000 cells per well in a total volume of 25 μL. […] 25 μL of room temperature 1×Renilla-Glo Luciferase Assay Reagent (Promega) are added to each well and incubated at room temperature for 10 minutes and luminescence was measured on a Perkin Elmer EnVision. The Renilla-Glo reagent quantifies the amount of luciferase activity, which gives a measure of replicon activity present. The half-maximal effective concentration (EC50) was determined using GraphPad Prism. Percent residual activity of the replicon is determined after normalizing the curve to the mean RLU high control at 100% and the mean RLU low control at 0%. […]", "data": [{"smiles": "COC(=O)/C=C/C(=O)NNC(=O)CCc1ccc2cc1C(=O)N[C@H](C)c1cc(cc3c1CCCC3)CCCCCN(C)C2=O", "values": [{"measurement": "EC50", "value": "1 to 10", "unit": "µM"}]}]}
